PubChem BioAssay AID504761 – Drosophila RNAi Screening Center – 2011
Aim: 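Genome-wide fly cell screen for genes dengue virus requires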 (primary screen). Cells: D.Mel-2 cells from Drosophila. Reagent: long dsRNA against Drosophila genes. Conditions: infection with dengue virus type 2; dose and infection time not stated. Measured: 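Per well on two replicate plates, imaging gave the percent of cells positive for viral envelope protein, ranked by infection, and a nuclear count of cells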. Reading the numbers: infection score: higher = more virus-infected cells; cell count: higher = more cells in the well. Hit rule: 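Very low infection ranking in both replicate wells (chance probability at most 0.065), then a retest showing infection dropped 1.5-fold or more at p below 0.05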. Calls: active = confirmed: knock-down lowers infection; inactive = not picked or not confirmed.
The screen tested about 22,000 reagents; shown is a random part of those that have a named target and a result. Over the whole deposit, 116 (0.52%) were called active. 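Calls depend on retest data that are not deposited; infection was ranked per plate without normalising between plates; the unit of the infection score is not given.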 The raw values are shown without normalisation. Unmarked entries are inactive. Names joined by + are all predicted targets of the reagent. Not given: the amount of reagent, the time to read-out.

gene	amplicon	infection score, replicate 1	infection score, replicate 2	cell count, replicate 1	cell count, replicate 2
Rrp40 (GeneID 319033)	DRSC00074	13.4	3.67	5877	5857
Gr47b (GeneID 117345)	DRSC05275	1.33	0.48	5871	5883
Ak2 (GeneID 37834)	DRSC04043	23.4	0.75	3680	664
CG42541 (GeneID 31344)	DRSC17973	1.09	3.19	6712	5710
CG42541 (GeneID 31344)	DRSC18120	1.58	6.81	6756	5716
CG42541 (GeneID 31344)	DRSC25318	3.55	4.53	5798	5921
CG42541 (GeneID 31344)	DRSC25441	2.46	2.46	6304	6412
flr (GeneID 39505)	DRSC09787	8.07	9.49	4722	4562
dom (GeneID 45655)	DRSC04558	18.6	18.2	5606	4031
dom (GeneID 45655)	DRSC04559	12	24.8	5078	5125
dom (GeneID 45655)	DRSC29669	6.29		1128	340
Tsp42Ep (GeneID 35626)	DRSC06871	28.6	15.4	6000	6853
CG6362 (GeneID 37032)	DRSC07413	15.1	19.3	6075	7078
CG6362 (GeneID 37032)	DRSC26135	5.74	1.52	5925	5774
CG9514 (GeneID 32418)	DRSC20190	1.22	3.45	6321	6386
CG9514 (GeneID 32418)	DRSC20191	9.87	7.9	6181	6369
CG9514 (GeneID 32418)	DRSC30059	7.6	6.46	6049	5282
schuy (GeneID 40184)	DRSC10284	4.32	2.1	6204	6514
schuy (GeneID 40184)	DRSC28184	13.9	9.77	5290	6590
snRNA:U1:95Cc + snRNA:U1:95Cb	DRSC13641	4.08	3.55	6007	6389
btn (GeneID 42664)	DRSC26486	2.94	7.52	6258	5837
Xe7 (GeneID 40699)	DRSC12307	3.19	15.8	6260	4621
l(2)k09848 (GeneID 35536)	DRSC04894	26.6	24.8	5611	5616
E(spl)m8-HLH (GeneID 43161)	DRSC16654	1.16	4.12	6029	6575
E(spl)m8-HLH (GeneID 43161)	DRSC28065	16.3	5.67	5129	6910
RpS14a (GeneID 47218)	DRSC18710	9.5	11.6	1821	1468
APP-BP1 (GeneID 39244)	DRSC10920	1.65	2.67	5708	6057
gdrd (GeneID 39599)	DRSC10020	2.25	0.68	5916	6943
TwdlB (GeneID 43202)	DRSC16050		0.21	472	474
TwdlB (GeneID 43202)	DRSC25071	8.65	19.9	4463	5674
Ndg (GeneID 36089)	DRSC06223	7.69	9.2	6566	6576
Ndg (GeneID 36089)	DRSC28402	2.73	13.5	842	1505
hiw (GeneID 32429)	DRSC20338	9.63	3.82	6325	6595
hiw (GeneID 32429)	DRSC20339	0.93	29.2	323	4249
hiw (GeneID 32429)	DRSC23634	0.26	4.45	6457	5849
Cpr67Fa2 (GeneID 39224)	DRSC10315	2.22	5.36	6071	6181
Plap (GeneID 43978)	DRSC00678	0.81	5.09	6659	6320
CG13991 (GeneID 33868)	DRSC02323	5.44	0.8	5936	6650
CG17568 (GeneID 35198)	DRSC02628		13.9	605	6719
CG31643 (GeneID 318867)	DRSC00906	6.11	2.31	6119	5710
CG1737 (GeneID 32077)	DRSC19771	1.99	3.09	6093	6465
CG1737 (GeneID 32077)	DRSC25132	1.69	14.2	5913	5883
bbc (GeneID 36496)	DRSC06958	2.36	6.74	6346	6812
bbc (GeneID 36496)	DRSC22309	2.06	7.34	6028	6618
CG17378 (GeneID 33951)	DRSC02616	1	2.15	6393	6404
Unr (GeneID 38963)	DRSC10761	1.08 (active)	1.43	6846	7078
Unr (GeneID 38963)	DRSC26920	5.97	7.11	6395	6542
HERC2 (GeneID 33035)	DRSC20566	4.97	1.64	5937	5853
CG2278 (GeneID 31751)	DRSC18226	3.42	4.35	6934	6916
CG6204 (GeneID 42877)	DRSC15991	8.04	1.4	6219	6509
Ncc69 (GeneID 39410)	DRSC10412	10.3	3.1	6365	6507
Ncc69 (GeneID 39410)	DRSC10413	11.4	3.33	6232	6610
Ncc69 (GeneID 39410)	DRSC23572	2.1	10.6	7152	6441
NT5E-2 (GeneID 246458)	DRSC06893	6.93	14.8	6822	6229
CG11345 (GeneID 38548)	DRSC08176	3.72	3.59	6283	5599
CG11345 (GeneID 38548)	DRSC28509	4.59	4.09	850	5082
RNaseZ (GeneID 36086)	DRSC06845	7.21	1.24	6060	6427
CG6040 (GeneID 42292)	DRSC15954	1.49	4.27	6790	6136
CG6040 (GeneID 42292)	DRSC26100	11.8	5.92	5830	5963
CG12279 (GeneID 41570)	DRSC14495	6.43	7.02	5974	6523
CG14341 (GeneID 33301)	DRSC00371	0.61	5.29	6257	6316
TAF1C-like (GeneID 37450)	DRSC04073	5.73	5.47	6737	6378
CG9294 (GeneID 37491)	DRSC04537	5.86	3.65	6999	7181
ninaD (GeneID 326160)	DRSC02886	8.4	4.34	5977	6951
ninaD (GeneID 326160)	DRSC24484	1.24	1.63	5498	5901
CG11279 (GeneID 39486)	DRSC09837	2.46	2.87	6311	6234
mago (GeneID 37402)	DRSC04703	16.9	9.31	5501	6394
Brms1 (GeneID 32243)	DRSC19896		9.59	438	4858
AnxB9 (GeneID 42492)	DRSC14111	3.49	4.03	6152	6178
AnxB9 (GeneID 42492)	DRSC25715	4.05	7.76	6093	6004
CG32241 (GeneID 317934)	DRSC08100	7.64	9.93	6384	5778
CG32241 (GeneID 317934)	DRSC21518	3.04	3.94	5556	5885
CG32241 (GeneID 317934)	DRSC25178	3.69	1.85	6430	6436
CG1368 (GeneID 32361)	DRSC19537	14.2	12.7	6036	1394
CG1368 (GeneID 32361)	DRSC25431	6.98	15.1	5962	5546
